PMC11883425, “The synthesis and investigation of novel 3-benzoylbenzofurans and pyrazole derivatives for anti-HIV activity” (RSC Medicinal Chemistry, 2025)

How the values were obtained:
[1] = tested on: HIV-1 CAP210 pseudovirus; experiment: HIV-1 whole virus inhibition assay, CAP210 pseudovirus (luciferase, TZM-bl cells); type: cell-based; settings: ratio of CC50 (TZM-bl) to IC50 (CAP210)
Procedure: (§1) The HIV pseudoviruses were produced from the plasmids that were kindly donated by Dr Mthunzi-Kufa (CSIR, South Africa). Competent DH5α cells and STBL2 cells were transformed with envelope (CAP210.2.00.E8 and Q23.17) and backbone plasmid (HIV-1 SG3 ΔEnv) through heat-shock at 42 °C for 90 seconds and cooled in ice for 5 minutes. The transformed cells were grown in Luria Bertani medium containing 100 μg mL^−1 ampicillin and glycerol stocks were prepared. The transformed cells were grown at 37 °C in a 200 rpm shaking incubator overnight and the plasmids were isolated from the cells using a GeneJET plasmid Miniprep Kit (ThermoFisher Scientific Inc). The purity of the isolated plasmids was assessed for purity using Nanodrop. The HEK 293T cells were co-transfected with the backbone (10 μg) and envelope plasmids (5 μg) using the PolyFect Transfection Reagent (QIAGEN N.V) for 8–12 hours and the transfected cells were grown for 48 hours producing pseudoviruses which were collected, and stocks stored at −80 °C.
(§2) The compounds were serial diluted from 100 to1.56 μM in 96 well plates (Separation Scientific SA (Pty) Ltd) and incubated with either CAP210 or Q23 pseudoviruses (200 TCID50) and incubated for 1 hour. The TZM-bl cells (1 × 10^5 cells per mL containing 7.5 μg mL^−1 DEAE-dextran) were added and incubated for 48 hours. The 96 well plates were centrifuged, and the supernatant was removed leaving only 50 μL in each well. The Bright-Glo™ Luciferase substrate (Anatech Instruments (Pty) Ltd) (50 μL) was added to each well and incubated for 2 minutes in the dark and chemiluminescence readings were taken in a Corning® 96-well white polystyrene plate using a SpectraMax® Paradigm® Multi-Mode Microplate Reader.

[2] = tested on: HIV-1 Q23 pseudovirus; experiment: HIV-1 whole virus inhibition assay, Q23 pseudovirus (luciferase, TZM-bl cells); type: cell-based; settings: ratio of CC50 (TZM-bl) to IC50 (Q23)
Procedure: as §1, §2

Structure (SMILES)	SI (CAP210) [1]	SI (Q23) [2]
COc1cc(F)ccc1C(=O)c1coc2ccc(O)cc12 [3f, (4-fluoro-2-methoxyphenyl)(5-hydroxy-1-benzofuran-3-yl)methanone]	3.76	1.03
COc1ccc(C(=O)c2coc3ccc(O)cc23)c(OC)c1OC [3g, (5-Hydroxybenzofuran-3-yl)(2,3,4-trimethoxyphenyl)methanone]	16.26	20.47
COc1ccc(OC)c(C(=O)c2coc3ccc(O)cc23)c1 [3h, (5-Hydroxybenzofuran-3-yl)(2,5-dimethoxyphenyl)methanone]	11.23	8.71
COc1ccc(OC)c(C(=O)c2coc3cc(C)c(OC)c(C)c23)c1 [4a, (2,5-Dimethoxyphenyl)(5-methoxy-4,6-dimethyl-1-benzofuran-3-yl)methanone]	7.26	3.26
COc1ccc(OC)c(C(=O)c2coc3c(C)cc(OC)c(C)c23)c1 [4b, (2,5-Dimethoxyphenyl)(5-methoxy-4,7-dimethyl-1-benzofuran-3-yl)methanone]	70.17	17.18
COc1ccc(OC)c(C(=O)c2coc3c2cc(OC)c2ccccc23)c1 [4c, (2,5-Dimethoxyphenyl)(5-methoxynaphtho[1,2-b]furan-3-yl)methanone]	3.97	0.76
COc1ccc(Br)cc1C(=O)c1coc2c1cc(OC)c1ccccc12 [4d, (5-Bromo-2-methoxyphenyl)(5-methoxynaphtho[1,2-b]furan-3-yl)methanone]	2.36	0.35
COc1cc(F)ccc1C(=O)c1coc2c1cc(OC)c1ccccc12 [4e, (4-Fluoro-2-methoxyphenyl)(5-methoxynaphtho[1,2-b]furan-3-yl)methanone]	8.24	1.68
COc1ccc(OC)c(-c2n[nH]cc2-c2c(O)cc(C)c(OC)c2C)c1 [5a, 2-[3-(2,5-Dimethoxyphenyl)-1H-pyrazol-4-yl]-4-methoxy-3,5-dimethylphenol]	4.83	6.67
COc1ccc(OC)c(-c2n[nH]cc2-c2c(C)c(OC)cc(C)c2O)c1 [5b, 2-[3-(2,5-Dimethoxyphenyl)-1H-pyrazol-4-yl]-4-methoxy-3,6-dimethylphenol]	5.90	4.60
COc1ccc(OC)c(-c2n[nH]cc2-c2cc(OC)c3ccccc3c2O)c1 [5c, 2-[3-(2,5-Dimethoxyphenyl)-1H-pyrazol-4-yl]-4-methoxynaphthalen-1-ol]	2.33	3.68
COc1ccc(Br)cc1-c1n[nH]cc1-c1cc(OC)c2ccccc2c1O [5d, 2-[3-(5-Bromo-2-methoxyphenyl)-1H-pyrazol-4-yl]-4-methoxynaphthalen-1-ol]	3.61	4.62
COc1cc(F)ccc1-c1n[nH]cc1-c1cc(OC)c2ccccc2c1O [5e, 2-[3-(4-Fluoro-2-methoxyphenyl)-1H-pyrazol-4-yl]-4-methoxynaphthalen-1-ol]	3.55	6.60
COc1cc(F)ccc1-c1n[nH]cc1-c1cc(O)ccc1O [5f, 2-[3-(4-Fluoro-2-methoxyphenyl)-1H-pyrazol-4-yl]benzene-1,4-diol]	36.43	92.49
COc1ccc(-c2n[nH]cc2-c2cc(O)ccc2O)c(OC)c1OC [5g, 2-[3-(2,3,4-Trimethoxyphenyl)-1H-pyrazol-4-yl]benzene-1,4-diol]	10.15	14.11
COc1ccc(OC)c(-c2n[nH]cc2-c2cc(O)ccc2O)c1 [5h, 2-[3-(2,5-Dimethoxyphenyl)-1H-pyrazol-4-yl]benzene-1,4-diol]	22.55	17.48
Cc1ccnc2c1NC(=O)c1cccnc1N2C1CC1 [NVP, nevirapine, reference compound]	>500	>500
